In PubChem BioAssay AID288 (DTP/NCI, 2004):
Records with an inconclusive call do not appear. The calls were made as follows: active = survival T/C of 150% or more; inactive = T/C below 125% in these data.

System: BDF1 mice, M5076 sarcoma s.c., survival/tumor T/C
Test: NCI In Vivo Anticancer Drug Screen. Data for tumor model Sarcoma M5076 (subcutaneous) in B6D2F1 (BDF1) mice
Settings: endpoint: median survival time, schedule: Q01DX009 (ip), vehicle: saline with Tween-80, higher = longer survival
Protocol: The antitumor activity of compounds was measured in mice bearing transplantable tumors. Survival or tumor size were measured and the results are expressed as the measurement made in the treated group (T) divided by the measurement made in the vehicle treated control group (C). The tumor model used in this assay is Sarcoma M5076 (subcutaneous) in B6D2F1 (BDF1) mice

Measured: T/C

[Sm].[c-]1[c-][c-][cH-][c-]1.[c-]1[c-][c-][cH-][c-]1.[c-]1[c-][c-][cH-][c-]1
inactive: dose: 50.0 mg/kg/injection 89 % of control | dose: 100.0 mg/kg/injection 97 % of control | dose: 200.0 mg/kg/injection 111 % of control
